Results of unrelated studies side by side (data: NIAID ChemDB).

All rows: toxicity to cultured cells; cell line: MT-4; measure: CC50

An empty or dashed field is not shown. a–b is a range or a potency band. CCn: concentration that lowers growth or viability of the cells by n%. Conditions beyond the fields shown may differ between rows.

structure | method | value
CC(C)(CS(=O)(=O)[O-])[NH2+]C(=O)C(CC(F)(OC(F)(F)C(F)(OC(F)(F)C(F)(OC(F)(F)C(F)(F)C(F)(F)F)C(F)(F)F)C(F)(F)F)C(F)(F)F)C(F)(OC(F)(F)C(F)(OC(F)(F)C(F)(OC(F)(F)C(F)(F)C(F)(F)F)C(F)(F)F)C(F)(F)F)C(F)(F)F | - | >50 µg/mL
Cc1ccc(NC(=O)CSc2ncnn2-c2ccc(Cl)cc2Cl)c([N+](=O)[O-])c1 | MTT | 285.2 µM
CCc1c(Cc2ccccc2)n(COCCc2ccccc2)c(=O)[nH]c1=O | MTT | 43 µM
CSCC[C@H](OC(=O)[C@@H](N)c1ccccc1-c1c[nH]c2ccccc12)c1ccccc1 | MTT | 20 µM
Cc1c(C(C)c2c(F)cccc2F)nc(NN2CCCCCC2)[nH]c1=O | MTT | >72 µM
N#Cc1cc2ccc(N[C@@H]3CCNC3)cc2n(-c2ccc([N+](=O)[O-])cc2)c1=O | - | >32 µM
CCCCCCCCOC(=O)OCOc1c2n(cc(C(=O)NCc3ccc(F)cc3F)c1=O)[C@@H]1CN(C2=O)[C@@H](C)CC[C@]12CC(OC)=NO2 | luminescence | 50 µM
CSCCC(OC(=O)[C@@H](N)c1ccccc1-c1c[nH]c2ccccc12)C(C)(C)C | MTT | 35 µM
C=C1CN(S(=O)(=O)c2ccc(N)cc2)CCCN(Cc2ccccc2)CCCN(S(=O)(=O)c2ccc(N)cc2)C1 | trypan blue / propidium iodide | 34.3 µM
CCOCn1c(Cc2ccc(OC)c(OC)c2)c(CC)c(=O)[nH]c1=O | MTT | >100 µM
CC(C)C(NC(=O)OC(C)(C)C)C(=O)O[C@@H](C[C@@H](Cc1ccccc1)C(=O)N[C@H]1c2ccccc2C[C@H]1OC(=O)C(NC(=O)OC(C)(C)C)C(C)C)CN1CCN(Cc2cccnc2)C[C@H]1C(=O)NC(C)(C)C | - | 0.08 µM
N#Cc1cc2ccc(OC[C@@H]3CCCN3)cc2n(-c2ccc([N+](=O)[O-])cc2)c1=O | - | >32 µM
Cc1ccc(S(=O)(=O)N2CCCN(Cc3ccccc3)CCCN(S(=O)(=O)c3ccc(C)cc3)CC(CCl)C2)cc1 | trypan blue / propidium iodide | 46.9 µM
N#Cc1c(N)c2ccc(-c3ccccc3)cc2n(-c2ccc([N+](=O)[O-])cc2)c1=O | - | >100 µM
CC1=C[C@@H]([C@H]2O[C@@H]3Cc4c(ccc5c4C=C[C@H]4C(C)(C)O[C@@H]6CC(=O)O[C@@]64C5)[C@@H]3[C@@H]2C)OC1=O | MTT | ~120 µg/mL
COC1=NO[C@@]2(CC[C@H](C)N3C[C@H]2n2cc(C(=O)NCc4ccc(F)cc4F)c(=O)c(OCOC(=O)OCCCCCCCC(C)C)c2C3=O)C1 | luminescence | 50 µM
Cc1nnc(C(=O)N(C)C2COCCn3c2nc(C(=O)NCc2ccc(F)cc2)c(O)c3=O)o1 | microscopy | >1 µM
CSCC[C@H](C)OC(=O)[C@@H](NC(=O)CSC(C)(C)C)c1ccccc1-c1c[nH]c2ccccc12 | MTT | 16 µM
C=C1CN(S(=O)(=O)c2ccccc2)CCCN(Cc2ccccc2)CCCN(S(=O)(=O)c2ccccc2)C1 | trypan blue / propidium iodide | 40.2 µM
CC1=C(C(=O)Nc2ccc(Cl)cc2)C2=NN=C(N)C2C(=O)N1 | MTT | 92.6 µg/mL
CCc1c(Cc2cc(C)cc(C)c2)n(COCCc2ccccc2)c(=O)[nH]c1=O | MTT | 41 µM
CCOCn1c2c(c(=O)[nH]c1=O)COC2c1ccccc1 | MTT | 100 µM
C[C@]1(CO)[C@H](Cn2cnc3c(=O)[nH]c(N)nc32)C1(F)F | - | >100 µM
CC(=O)NCc1cccc(-c2ccc3c(N)c(C#N)c(=O)n(-c4ccc(C)c(C#N)c4)c3c2)c1 | - | 19.83 µM
CC1=C(C(=O)Nc2cc(Cl)ccc2Cl)C2=NN=C(N)C2C(=O)N1 | MTT | 48.8 µg/mL
C[C@]1(CO)[C@@H](Cn2cnc3c(=O)[nH]c(N)nc32)C1(F)F | - | >100 µM
C=C1CN(S(=O)(=O)c2ccc(C)cc2)CCCN(CC2CC2)CCCN(S(=O)(=O)c2ccc(C)cc2)C1 | trypan blue / propidium iodide | 36.1 µM
O=c1[nH]c(=O)n(COCc2ccccc2)c2c1COC2c1ccccc1 | MTT | >100 µM
CC1=C(C(=O)Nc2cc(C)ccc2C)C2=NN=C(N)C2C(=O)N1 | MTT | 49.5 µg/mL
O=c1ccn([C@@H]2O[C@H](CO)[C@@H](O)[C@H]2O)c2cc(F)ccc12 | MTT | 31–125 µg/mL
CCc1c(Cc2cc(C)cc(C)c2)n(COCCCc2ccccc2)c(=O)[nH]c1=O | MTT | 43 µM
O=C1Cn2c(nc(C(=O)NCc3ccc(F)cc3)c(O)c2=O)CN1 | microscopy | >1 µM
CN1C(=O)[C@@H](c2cc(Cl)c(O)c(Cl)c2)NC(=O)[C@@H]2NC(=O)[C@H](c3cc(Cl)c(O)c(Cl)c3)NC(=O)[C@@H](NC(=O)C(=O)c3cc(Cl)c(O)c(Cl)c3)Cc3c[nH]c4cc(ccc34)-c3cc2cc(c3O)Oc2ccc(cc2)C[C@H]1C(=O)N[C@@H](C(=O)O)c1ccc(O)cc1 | - | >400 µg/mL
OC1/C(=C/c2ccc(Cl)c(Cl)c2)CSC/C1=C\c1ccc(Cl)c(Cl)c1 | MTT | 119 µM
CN1C(=O)C(c2cc(Cl)c(O)c(Cl)c2)NC(=O)[C@@H]2NC(=O)C(c3cc(Cl)c(O)c(Cl)c3)NC(=O)[C@H](NC(=O)C(=O)c3cc(Cl)c(O)c(Cl)c3)Cc3c[nH]c4c(cccc34)-c3cc2cc(c3O)Oc2ccc(cc2)CC1C(=O)NC(C(=O)O)c1ccc(O)cc1 | - | 530 µM
CC1=C(C(=O)Nc2ccccc2C)C2=NN=C(N)C2C(=O)N1 | MTT | 96.1 µg/mL
O=C(NCc1ccc(F)cc1)c1nc2n(c(=O)c1O)CCN(Cc1ccccc1)CC2 | microscopy | >1 µM
Nc1ccn([C@H]2CC[C@@H](CO)O2)c(=O)n1 | - | 41.4 µM
CCc1c(Cc2ccc(OC)c(OC)c2)n(COCc2ccccc2)c(=O)[nH]c1=O | MTT | 80 µM
[N-]=[N+]=N[C@H]1[C@@H](F)[C@H](n2ccc(N)nc2=O)O[C@@H]1CO | - | 243 µM
CCCCCCCCCCCCCCCCCC(=O)OCOc1c2n(cc(C(=O)NCc3ccc(F)cc3F)c1=O)[C@@H]1CN(C2=O)[C@@H](C)CC[C@]12CC(C)=NO2 | luminescence | 50 µM
Nc1ccn([C@@H]2OC[C@H](CO)[C@H]2O)c(=O)n1 | - | >100 µM
CCc1c(Cc2cc(C)cc(C)c2)n(COCC2CC2)c(=O)[nH]c1=O | MTT | 51 µM
CCCCCCCCCCCCCCCCOC(=O)Oc1c2n(cc(C(=O)NCc3ccc(F)cc3F)c1=O)[C@@H]1CN(C2=O)[C@@H](C)CC[C@]12CC(OC)=NO2 | luminescence | 50 µM
Cc1cn([C@@H]2O[C@H](CO)C[C@@H]2F)c(=O)[nH]c1=O | - | >500 µM
Cc1ccc(-n2c(=O)c(C#N)c(N)c3ccc(Cl)cc32)cn1 | - | >100 µM
COCCOCCOCCOCCOCCOCCOCCOCCOCCOCCOCCOCCOCCOCCOCCOCCOCCOCCOCCOCCOCCOCCOCCOCCOCCOCCOCCOCCOCCOCCOCCOCCOCCOCCOCCOCCOCCOCCOCCOCCOCCOCCOCCOCCOC(=O)CCC(=O)O[C@H](CN1C[C@H]2CCCC[C@H]2C[C@H]1C(=O)NC(C)(C)C)[C@H](Cc1ccccc1)NC(=O)[C@H](CC(N)=O)NC(=O)c1ccc2ccccc2n1 | - | >0.01 µM
Nc1nc2c(ncn2[C@H]2C[C@H](F)[C@@H](CO)O2)c(=O)[nH]1 | - | 231 µM
CNCCCOc1ccc2cc(C#N)c(=O)n(-c3ccc([N+](=O)[O-])cc3)c2c1 | - | 70.68 µM
COC(=O)c1cn([C@@H]2O[C@H](CO)[C@@H](O)[C@H]2O)c2c(F)cccc2c1=O | MTT | 31–125 µg/mL
CC(C)C(N)C(=O)O[C@@H](C[C@@H](Cc1ccccc1)C(=O)N[C@H]1c2ccccc2C[C@H]1OC(=O)C(N)C(C)C)CN1CCN(Cc2cccnc2)C[C@H]1C(=O)NC(C)(C)C | - | 0.08 µM
CC1=C(C(=O)Nc2ccc(Br)cc2)C2=NN=C(N)C2C(=O)N1 | MTT | 94.6 µg/mL
CCCCCCCCCCOC(=O)OCOc1c2n(cc(C(=O)NCc3ccc(F)cc3F)c1=O)[C@@H]1CN(C2=O)[C@@H](C)CC[C@]12CC(OC)=NO2 | luminescence | 50 µM
Cc1ccc(S(=O)(=O)N2CCCN(Cc3ccccc3)CCCN(S(=O)(=O)c3ccc(C)cc3)CC(CO)C2)cc1 | trypan blue / propidium iodide | 41 µM
COC(=O)c1cn([C@@H]2O[C@H](CO)[C@@H](O)[C@H]2O)c2cc(F)ccc2c1=O | MTT | 31–125 µg/mL
Nc1ccn([C@@H]2O[C@H](CO)C[C@@H]2F)c(=O)n1 | - | 117 µM
CN1C/C(=C\c2ccc(O)c(O)c2)C(=O)/C(=C/c2ccc(O)c(O)c2)C1 | MTT | 5 µM
N[C@H]1C[C@H](n2cc(F)c(=O)[nH]c2=O)OC1[C@@H](O)CO | - | 100 µM
CCCCCC(CCSC)OC(=O)[C@@H](N)c1ccccc1-c1c[nH]c2ccccc12 | MTT | 27 µM
N#Cc1cc2ccc(O[C@@H]3CCNC3)cc2n(-c2ccc([N+](=O)[O-])cc2)c1=O | - | >32 µM
CC1=C(C(=O)Nc2ccccc2F)C2=NN=C(N)C2C(=O)N1 | MTT | 98.9 µg/mL
CN1Cn2c(nc(C(=O)NCc3ccc(F)cc3)c(O)c2=O)C1(C)C | microscopy | >1 µM
O=C(O)CC1C/C(=C\c2ccc(O)c(O)c2)C(=O)/C(=C/c2ccc(O)c(O)c2)C1 | MTT | 41 µM
Cc1ccc(CNC(=O)c2nc3n(c(=O)c2O)CCNCC3N(C)C(=O)C(=O)N(C)C)cc1Cl | microscopy | >1 µM
CCN1C/C(=C\c2cc(O)c(O)c(O)c2)C(=O)/C(=C/c2cc(O)c(O)c(O)c2)C1 | MTT | 40 µM
CC(C)(C)NC(=O)[C@@H]1C[C@@H]2CCCC[C@@H]2CN1C[C@@H](OC(=O)COc1ccc(CC(NC(=O)OC(C)(C)C)C(=O)OC(C)(C)C)cc1)[C@H](Cc1ccccc1)NC(=O)[C@H](CC(N)=O)NC(=O)c1ccc2ccccc2n1 | - | >0.01 µM

3 of the rows above, restated:

structure | method | value
O=C1Cn2c(nc(C(=O)NCc3ccc(F)cc3)c(O)c2=O)CN1 | microscopy | >1 µM
C=C1CN(S(=O)(=O)c2ccc(N)cc2)CCCN(Cc2ccccc2)CCCN(S(=O)(=O)c2ccc(N)cc2)C1 | trypan blue / propidium iodide | 34.3 µM
CC1=C(C(=O)Nc2ccccc2C)C2=NN=C(N)C2C(=O)N1 | MTT | 96.1 µg/mL